A mixed list of measured activities; the numbers were collected in NIAID ChemDB.

All rows: host cell toxicity; cell line: PBL; measure: CC50

CCn is the concentration with n% toxicity to the cells.

SMILES | result
Cc1cn([C@H]2C[C@H](N=[N+]=[N-])[C@@H](CO)O2)c(=O)[nH]c1=O | 44 µM
CC(=O)N(O)CCCCCNC(=O)CCC(=O)N(O)CCCCCNC(=O)CCC(=O)N(O)CCCCCN | <100 µM
Nc1nc(N)c2ncn(CC(CF)OCP(=O)(O)O)c2n1 | >500 µM
C[C@@H](Cn1cnc2c(N)ncnc21)OCP(=O)(O)O | >300 µM
COc1ccc2c(c1)N(C(=O)OC(C)C)[C@@H](CSC)C(=S)N2 | 25 µM
CCOCn1c(Cc2cc(C)cc(C)c2)c(CC)c(=O)[nH]c1=O | 73 µM
CCN(CC)CCCC(C)Nc1ccnc2cc(Cl)ccc12 | 60 µM
COC(=O)[C@H](C)NP(=O)(OC[C@@H]1C=C[C@H](n2cnc3c(N)ncnc32)O1)Oc1ccccc1 | 5.2 µM
CC12CCC3C(CCC4CCCCC43C)C1CC(F)C2=O | >100 µM
CCc1cc(NCc2nc3c(Cl)ccc(Cl)c3o2)c(=O)[nH]c1C | >60 µM
CCOCn1c(Sc2cc(C)cc(C)c2)c(CC)c(=O)[nH]c1=S | 33 µM
Nc1ccn([C@H]2CC[C@@H](CO)O2)c(=O)n1 | 11 µM
C1CNCCNCCCN[C@H]([C@@H]2CNCCCNCCNCCCN2)CNC1 | >724 µM
Nc1nc(N)c2ncn(CCOCP(=O)(O)O)c2n1 | 12 µM
CC(C)C[C@H](NC(=O)[C@H](Cc1ccccc1)NC(=O)CNC(=O)CNC(=O)[C@@H](N)Cc1ccc(O)cc1)C(=O)OC[C@H]1O[C@@H](OCc2ccccc2)[C@H](O)[C@@H](O)[C@@H]1O | >140 µM
O=c1c2ccccc2n2nnc3ccc(NCCCN4CCN(CCCNc5ccc6nnn7c8ccccc8c(=O)c5c67)CC4)c1c32 | >1 µM
CC(C)C[C@H](NC(=O)[C@H](Cc1ccccc1)NC(=O)CNC(=O)CNC(=O)[C@@H](N)Cc1ccc(O)cc1)C(=O)N[C@@H]1O[C@H](CO)[C@@H](O)[C@H](O)[C@H]1O | >140 µM
NC(=O)c1ncn([C@@H]2O[C@H](CO)[C@@H](O)[C@H]2O)n1 | >20 µM
CC(C)C[C@H](NC(=O)[C@H](Cc1ccccc1)NC(=O)CNC(=O)CNC(=O)[C@@H](N)Cc1ccc(O)cc1)C(=O)O[C@@H]1O[C@H](CO)[C@@H](O)[C@H](O)[C@H]1O | >140 µM
Nc1ncnc2c1ncn2[C@H]1CC[C@@H](CO)O1 | 24 µM

Again, the opening 2 rows:

SMILES	result
Cc1cn([C@H]2C[C@H](N=[N+]=[N-])[C@@H](CO)O2)c(=O)[nH]c1=O	44 µM
CC(=O)N(O)CCCCCNC(=O)CCC(=O)N(O)CCCCCNC(=O)CCC(=O)N(O)CCCCCN	<100 µM

Neighbouring rows are from separate reports.